How the values were obtained:
[1] = tested on: PSH pore; experiment: interaction of MTSES, DTT and PSH, single pore current trace; conditions: 2.5 mM trans, 50 μM DTT cis; −50 mV; pH 8.5
[2] = tested on: mixed disulfide 1 (DTNB/PSH complex); experiment: rate of reaction of DTT with mixed disulfide 1 (Step 2), single-channel recording; conditions: DTT trans, 50 μM DTNB cis; −50 mV; pH 8.5
[3] = tested on: Cys-117 of PSH; experiment: rate of reaction of DTNB with Cys-117 of PSH (Step 1), single-channel recording; conditions: DTNB trans, 50 μM DTT cis; −50 mV; 2 M KCl, 30 mM MOPS, pH 8.5; n=5
[4] = biological target: wild type αHL pore (Staphylococcus aureus, UniProt P09616); experiment: single-channel electrical recording with completely wild type αHL pore; conditions: pore contains no lumen Cys residues
[5] = tested on: PSH (T117C-D8)1(RL2)6 engineered αHL pore; conditions: 1.5 mM BAL added to 10 μM arsenical

## (2-sulfonatoethyl)methane thiosulfonate
[1]
  interaction with PSH pore: bound to the PSH pore, thereby blocking it

## O[C@H](CS)[C@H](O)CS
[2]
  k2-obs (1/τ2[DTT]): 1.1+/−0.1×10^4 M^−1s^−1

## O=C(O)c1cc(SSc2ccc([N+](=O)[O-])c(C(=O)O)c2)ccc1[N+](=O)[O-]
[3]
  k1-obs (1/τ1[DTNB]): 4.9+/−0.5×10^3 M^−1s^−1

## O=[AsH2]c1ccc(S(=O)(=O)O)cc1
[4]
  coupling events with wild type pore: not observed

## OCC(S)CS (centres unmarked)
[5]
  effect on coupling events of 4-sulfophenylarsine oxide with PSH: coupling events were eliminated
